According to article doi:10.1101/2023.12.21.572918 (bioRxiv, 2023):

Target: GPCysRRLL-I53-50A (Lassa virus, strain Josiah)

With GPCysRRLL-I53-50A the stoichiometry N was 3.
